Where two headings read alike, the source gives them in different places.
How the values were obtained:
HIV-1 protease = HIV-1 protease (Human immunodeficiency virus type 1 group M subtype B, UniProt P04585)
HIV-1NL4-3 [1] = experiment: p24 Gag inhibition in MT-4 cells, HIV-1NL4-3; format: cell-based; conditions: read-out: EC50 (μM), HIV-1NL4-3, Table 9, mean ± 1 SD
HIV-1NL4-3 [2] = experiment: in vitro selection of PI-resistant HIV-1 variants in MT-4 cells; format: cell-based; conditions: HIV-1NL4-3 in MT-4 cells, increasing drug concentrations
HIV-1286-1μM = conditions: read-out: EC50 (μM), HIV-1286-1 μM; MT-4 cells, p24 Gag
HIV-1 = experiment: antiviral assay (IC50); conditions: Table 2

| Structure (SMILES) | Ki (HIV-1 protease) | Ki (HIV-1 protease; Table 1, acyclic compounds) | EC50 (HIV-1NL4-3 [1]) | passage by which HIV-1 variants replicating in the presence of 1 μM drug emerged (HIV-1NL4-3 [2]) | EC50 (HIV-1286-1μM) | IC50 (HIV-1) | Ki (HIV-1 protease; Table 2) |
| --- | --- | --- | --- | --- | --- | --- | --- |
| C=CCOc1cc(OC)ccc1S(=O)(=O)N(CC=C)C[C@@H](O)[C@H](Cc1ccccc1)NC(=O)O[C@H]1CO[C@H]2OCC[C@H]21 | 0.1 nM | < 1 nM |  |  |  |  |  |
| COc1ccc2c(c1)OCCCCCCCCN(C[C@@H](O)[C@H](Cc1ccccc1)NC(=O)O[C@H]1CO[C@H]3OCC[C@H]31)S2(=O)=O |  |  | 0.033 µM | 33 passages | > 1 µM | < 100 nM | < 1 nM |
| COc1ccc2c(c1)OCCCCCCN(C[C@@H](O)[C@H](Cc1ccccc1)NC(=O)O[C@H]1CO[C@H]3OCC[C@H]31)S2(=O)=O |  |  |  |  |  | < 100 nM | < 1 nM |
